Test results: patent US20240352066A1 (priority 2021, published 2024)
Where a SMILES comes first, the peptide text is derived from it. [ ]: non-standard residue; d: D form. NCyclohexylmethylGly = O=C(O)CNCC1CCCCC1; N(tridecyl)Gly = CCCCCCCCCCCCCNCC(=O)O; Gly(N-2-aminoethyl) = NCCNCC(=O)O; Gly(N-cHex) = O=C(O)CNC1CCCCC1; NPhGly = O=C(O)CNc1ccccc1; NHexGly = CCCCCCNCC(=O)O; Nleu = CC(C)CNCC(=O)O; Nlys = NCCCCNCC(=O)O

Tested on: HepG2 hepatocellular carcinoma cells
Assay: Mammalian cytotoxicity, MTT, HepG2
Assay type: cell-based, human
Conditions: Example 2; HepG2 TD50 divided by C. neoformans MIC
Experimental: Hepatocellular carcinoma (HepG2), mouse fibroblast (3T3), human lung (HPL1A), and human keratinocyte (HaCat) cells were cultured in Dulbecco modified eagle media (DMEM) containing 10% fetal bovine serum (FBS) and 1% penicillin, streptomycin, and glutamine (PSG) at 37° C. and 5% CO2. Cells were collected and adjusted to […] to 4×10^5 cells/mL in phenol-red free DMEM and plated (100 μL) 96 well plates. 2-fold serial dilutions of 10× peptoid (11.1 μL) were added to each well in triplicate. Water (vehicle) was used as a negative control. Plates were incubated at 37° C. in 5% CO2 for 72 hours. Thiazolyl blue tetrazolium bromide (MTT) was added to each well (5 mg/mL; 20 μL) and incubated for 3 hours. Media was removed, DMSO (100 μL) was added, and plates were incubated at 37° C. for 10 minutes. Plates were read on a SpectraMax M5 plate reader (Abs. 570 nm). The concentration of compound resulting in a 50% reduction in growth compared to control (toxicity dose 50%; TD50) was determined using GraFit. This procedure was repeated three times on separate days.
Cytotoxicity against HepG2 hepatocellular carcinoma cells was done as previously described (Green et al. ACS infectious diseases, (2022); Corson et al. ACS medicinal chemistry letters 7 12, 1139-1144 (2016)). HepG2 cells were maintained in culture in T-75 flasks using Dulbecco's Modified Eagle's Media (DMEM) with phenol red pH indicator and supplemented with 10% fetal bovine serum (FBS) and 1% penicillin, streptomycin, and glutamine (PSG). The cells were incubated at 37° C. and 5% CO2 in a humidified incubator until desired confluency was achieved. The media was removed from the flask, and the cells were washed 1× with 10 mL of phosphate-buffered saline (PBS; 11.8 mM phosphate, 140.4 mM NaCl; pH 7.4) which was then discarded. To remove the adhered cells from the flask, 2 mL of trypsin was added, and the cells were incubated for 10 minutes. To quench the trypsin, 8 mL of phenol red-free DMEM with 10% FBS and 1% PGS was added, and the cell solution was transferred to a 15 mL conical tube. After the cells were pelleted by centrifugation at 1000 rpm for 5 minutes, the supernatant was poured off and cells resuspended in the volume of phenol red-free media needed for the assay. Cell concentration was determined by counting with a hemocytometer, and the solution was diluted with media until a concentration of 1×10^5 cells/mL was achieved. A 100 μL aliquot of cell solution was added to each well of a 96-well plate, apart from the 3 wells used for a media control. Cells were incubated for 2-3 hours at 37° C. and 5% CO2 until cells were adherent.
Compound stocks of 20 mg/mL were used to prepare 2-fold serial dilutions of each compound in sterile water, giving final concentrations of 200, 100, 50, 25, 12.5, 6.25, 3.13 and 1.56 μg/mL. 11.1 μL of prepared compound solutions was added to the appropriate wells in triplicate. A negative vehicle control of sterile water, as well as the aforementioned media control, were used. The plates were incubated for 72 hours at 37° C. and 5% CO2. After incubation, 20 μL of 5 mg/mL 3-(4,5-dimethylthiazol-2-yl)-2,5-diphenyltetrazolium bromide (MTT) in water was added to each well. The plate was incubated for 3 hours at 37° C. and 5% CO2. Media was removed from each well using a sterile glass Pasteur pipette. 100 μL of DMSO was added to each well and incubated for 15 minutes at 37° C. Absorbance was read at 570 nm using a SpectraMax M5 Plate Reader. […]

**Q.** For CCCCCCCCCCCCCNCC(=O)N(CCCCCC)CC(=O)N(CCCCN)CC(=O)N(CCN)CC(=O)N(CCCCCC)CC(N)=O [Compound 10] (H-[N(tridecyl)Gly][NHexGly][Nlys][Gly(N-2-aminoethyl)][NHexGly]-NH2), which “Selectivity Ratio” value is on record?
**A.** 19-39

**Q.** Which “Selectivity Ratio” value does the source give for CCCCCCCCCCCCCNCC(=O)N(CCCCN)CC(=O)N(CC(=O)N(CC(=O)N(CCN)CC(N)=O)C1CCCCC1)C1CCCCC1 [Compound 3] (H-[N(tridecyl)Gly][Nlys][Gly(N-cHex)][Gly(N-cHex)][Gly(N-2-aminoethyl)]-NH2) here?
**A.** 34

**Q.** How did the “Selectivity Ratio” value turn out when CCCCCCCCCCCCCNCC(=O)N(CC(=O)N(CCCCN)CC(=O)N(CCN)CC(=O)N(CC(N)=O)CC(C)C)CC(C)C [Compound 9] (H-[N(tridecyl)Gly][Nleu][Nlys][Gly(N-2-aminoethyl)][Nleu]-NH2) was run?
**A.** 53

**Q.** Which “Selectivity Ratio” value does the source give for CCCCCCCCCCCCCNCC(=O)N(CC(=O)N(CCCCN)CC(=O)N(CCN)CC(=O)N(CC(N)=O)c1ccccc1)c1ccccc1 [Compound 14] (H-[N(tridecyl)Gly][NPhGly][Nlys][Gly(N-2-aminoethyl)][NPhGly]-NH2) here?
**A.** 26-52

**Q.** With CCCCCCCCCCCCCNCC(=O)N(CC(=O)N(CCCCN)CC(=O)N(CCN)CC(=O)N(CC(N)=O)CC1CCCCC1)CC1CCCCC1 [Compound 12] (H-[N(tridecyl)Gly][NCyclohexylmethylGly][Nlys][Gly(N-2-aminoethyl)][NCyclohexylmethylGly]-NH2) as the compound, how does the “Selectivity Ratio” value read?
**A.** 20-40
